The values that follow come from patent publication EP1228097B1, “ANTIMICROBIAL ACTIVITY OF THE FIRST CATIONIC CLUSTER OF HUMAN LACTOFERRIN” (priority 1999, dated 2005).

The chains behind the UniProt entries cited, without tags or fusion partners. Where a name states a change or a piece, a line headed by the entry shows the natural chain unless it says otherwise.
UniProt P02788: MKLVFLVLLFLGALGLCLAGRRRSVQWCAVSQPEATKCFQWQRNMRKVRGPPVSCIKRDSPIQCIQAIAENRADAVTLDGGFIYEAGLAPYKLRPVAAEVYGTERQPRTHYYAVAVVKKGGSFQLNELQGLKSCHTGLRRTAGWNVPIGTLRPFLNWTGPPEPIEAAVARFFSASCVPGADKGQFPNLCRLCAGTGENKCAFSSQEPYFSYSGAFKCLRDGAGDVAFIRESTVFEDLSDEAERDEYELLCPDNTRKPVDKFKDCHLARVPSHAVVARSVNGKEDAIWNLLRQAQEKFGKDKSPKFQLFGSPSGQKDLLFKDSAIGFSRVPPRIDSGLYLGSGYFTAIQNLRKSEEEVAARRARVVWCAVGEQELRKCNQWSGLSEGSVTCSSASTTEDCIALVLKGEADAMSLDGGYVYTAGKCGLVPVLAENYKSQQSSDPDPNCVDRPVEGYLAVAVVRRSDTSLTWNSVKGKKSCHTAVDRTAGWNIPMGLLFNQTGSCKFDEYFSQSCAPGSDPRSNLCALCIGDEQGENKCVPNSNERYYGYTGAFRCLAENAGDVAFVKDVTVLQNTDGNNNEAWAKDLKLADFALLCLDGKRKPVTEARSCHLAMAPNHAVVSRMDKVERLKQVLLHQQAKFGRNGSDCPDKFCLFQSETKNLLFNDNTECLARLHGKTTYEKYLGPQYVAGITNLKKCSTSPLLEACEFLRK

This data set has as its system bacterial infection. Description: imaging of a bacterial infection with 99mTc-labelled hLF and related peptides. The data set is classed as in vivo, mice. The note with it: compared with radiolabeled polyclonal human IgG.

Some entries repeat one wording, which the source may state once for all of them.

Regarding GRRRRSVQWCA [hLF(1-11), Mr 1,374], the “visualization of / accumulation at the site of infection (result in words)” value (“visualization of / accumulation” below) was “rapidly accumulate at the site of infection”. In addition, where the note is “listed as HLF(1-11)”, the “visualization of / accumulation” value is “superior to the other peptides and hLF itself”.

As to “hLF(2-11): residues 2 to 11 inclusively from the N-terminal region of hLF (RRRSVQWCAV; UniProt P02788 21-30, looked up, fragment)”, the “visualization of / accumulation” value was “rapidly accumulate at the site of infection”.

As for “hLF(3-11): synthetic fragment of hLF(1-11): residues 3-11 of hLF (RRSVQWCAV; UniProt P02788 22-30, looked up, fragment)”, the “visualization of / accumulation” value is on record as “rapidly accumulate at the site of infection”.
